PubChem BioAssay AID624099 – ICCB-Longwood – 2012
Test: 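Host factors E2 relies on to silence an HPV18 LCR reporter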 (primary screen). Cell system: human C33A cervical carcinoma cells (HPV-negative) stably expressing BPV1 E2 and an HPV18 LCR luciferase reporter. Knock-down reagent: siRNA pool against human genes, 40 nM. Timing: 72 h. Measured: 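Per-well luciferase luminescence, z-scored on each plate against the plate mean and SD with control wells left out, then averaged across three replicate plates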. Direction: mean z-score and z-score: higher = stronger reporter signal, weaker E2 silencing. Hit rule: 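Mean z ≥ 2 together with z ≥ 2 in two or more of the three replicates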.
Shown is a random part of about 21,000 reagents tested. Of all reagents, 497 (2.4%) were called active. 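Higher z means weaker E2 silencing; only reporter increases were scored, and knock-downs that hurt cell survival may mask genuine repressor factors.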 The numbers tell different reagents against one gene apart. Reagent sequences are not shown.

no.	Target gene	reagent	mean z-score	z-score, replicate A	z-score, replicate B	z-score, replicate C	Outcome
1	CARMIL1 (capping protein regulator and myosin 1 linker 1)	1	0.33	-0.05	0.89	0.14	inactive
2	EVA1B (eva-1 homolog B)	1	-0.94	-0.31	-0.32	-2.2	inactive
3	ROBO3 (roundabout guidance receptor 3)	1	0.77	0.04	0.98	1.29	inactive
4	ARMC9 (armadillo repeat containing 9)	1	0.43	0.66	0.99	-0.37	inactive
5	INPP4A (inositol polyphosphate-4-phosphatase type I A)	1	0.28	0.3	0.19	0.35	inactive
6	ANKRD34B (ankyrin repeat domain 34B)	1	-0.23	-0.63	-0.07	0	inactive
7	MAN1B1 (mannosidase alpha class 1B member 1)	1	-1.21	-1.1	-1.34	-1.2	inactive
8	LOC390570 (retired record)	1	-0.44	-0.26	-0.67	-0.38	inactive
9	MARK3 (microtubule affinity regulating kinase 3)	1	1.16	0.82	1.41	1.24	inactive
10	PRSS35 (serine protease 35)	1	0.35	0.05	0.26	0.73	inactive
11	DES (desmin)	1	1.02	1.11	1.05	0.9	inactive
12	CDH22 (cadherin 22)	1	-1.37	-1.44	-1.42	-1.26	inactive
13	SPNS1 (SPNS lysolipid transporter 1, lysophospholipid)	1	-1.11	-1.22	-1.11	-0.99	inactive
14	LGALS12 (galectin 12)	1	0.97	1.3	0.69	0.92	inactive
15	MAP2K3 (mitogen-activated protein kinase kinase 3)	1	0.2	0.08	0.43	0.09	inactive
16	LONRF1 (LON peptidase N-terminal domain and ring finger 1)	1	0.8	1.03	0.3	1.06	inactive
17	EHMT2 (euchromatic histone lysine methyltransferase 2)	1	0.7	0.73	0.45	0.91	inactive
18	CCDC181 (coiled-coil domain containing 181)	1	-0.76	-1	-0.34	-0.95	inactive
19	CSNK1D (casein kinase 1 delta)	1	-1.03	-0.56	-1.41	-1.11	inactive
20	DAGLA (diacylglycerol lipase alpha)	1	-0.52	-0.46	-0.63	-0.47	inactive
21	SPINK6 (serine peptidase inhibitor Kazal type 6)	1	0.39	0.23	0.32	0.62	inactive
22	HOXA4 (homeobox A4)	1	0.93	0.91	1.16	0.72	inactive
23	PRXL2C (peroxiredoxin like 2C)	1	0.97	0.77	1.2	0.96	inactive
24	LEMD3 (LEM domain containing 3)	1	-0.5	-0.57	-0.74	-0.17	inactive
25	AGPAT3 (1-acylglycerol-3-phosphate O-acyltransferase 3)	1	0.02	0.1	-0.28	0.24	inactive
26	SOX18 (SRY-box transcription factor 18)	1	1.13	1.3	1.03	1.05	inactive
27	EPB41L1 (erythrocyte membrane protein band 4.1 like 1)	1	-0.54	-0.89	-0.46	-0.27	inactive
28	ARHGEF16 (Rho guanine nucleotide exchange factor 16)	1	0.23	0.15	0.16	0.39	inactive
29	INO80B (INO80 complex subunit B)	1	-0.54	-0.64	-0.4	-0.58	inactive
30	TES (testin LIM domain protein)	1	-1.07	-0.97	-1.31	-0.92	inactive
31	LBR (lamin B receptor)	1	0.4	0.19	0.46	0.55	inactive
32	RNF148 (ring finger protein 148)	1	0.47		0.44	0.5	inactive
33	SRPX (sushi repeat containing protein X-linked)	1	0.14	0.36	0.16	-0.09	inactive
34	XPOT (exportin for tRNA)	1	-0.44	-0.3	-0.35	-0.68	inactive
35	ZNF497 (zinc finger protein 497)	1	-0.56	-0.67	-0.19	-0.8	inactive
36	HECW2	1	-1.51	-1.88	-1.08	-1.57	inactive
37	RNF4 (ring finger protein 4)	1	0.16	0.32	0.05	0.1	inactive
38	LOC389695 (retired record)	1	0.02	0.12	0.06	-0.11	inactive
39	GPN1 (GPN-loop GTPase 1)	1	3.63	3.3	3.46	4.13	active
40	LOC343484 (retired record)	1	0.53	0.61	0.27	0.72	inactive
41	NCKAP5L (NCK associated protein 5 like)	1	-1.45	-1.19	-1.4	-1.77	inactive
42	NCKAP5L (NCK associated protein 5 like)	2	1.01	0.6	1.17	1.27	inactive
43	HOMEZ (homeobox and leucine zipper encoding)	1	-1.17	-1.22	-1.02	-1.28	inactive
44	KRT23 (keratin 23)	1	-0.41	-0.62	-0.24	-0.37	inactive
45	CEP43 (centrosomal protein 43)	1	-1.16	-1.4	-1.01	-1.08	inactive
46	WFDC13 (WAP four-disulfide core domain 13)	1	0.68	0.55	0.61	0.88	inactive
47	DESI1 (desumoylating isopeptidase 1)	1	0.07	0.22	0.03	-0.05	inactive
48	CCDC120 (coiled-coil domain containing 120)	1	0.57	0.43	0.74	0.54	inactive
49	CRLF1 (cytokine receptor like factor 1)	1	-0.52	-0.59	-0.52	-0.43	inactive
50	LOC389899 (retired record)	1	-0.39	-0.36	-0.18	-0.64	inactive
51	PTF1A (pancreas associated transcription factor 1a)	1	1.59	1.37	1.64	1.75	inactive
52	BIRC3 (baculoviral IAP repeat containing 3)	1	0.62	0.56	0.64	0.64	inactive
53	F5 (coagulation factor V)	1	-1.32	-0.97	-1.4	-1.58	inactive
54	RNF213 (ring finger protein 213)	1	0.12	0.21	0.23	-0.09	inactive
55	RNF213 (ring finger protein 213)	2	0.56	0.68	0.54	0.46	inactive
56	ZDHHC11 (zDHHC palmitoyltransferase 11)	1	-0.18	0.07	-0.48	-0.14	inactive
57	FGGY (FGGY carbohydrate kinase domain containing)	1	0	0.11	-0.03	-0.08	inactive

Reagents above called active (1):
Target gene	reagent	mean z-score	z-score, replicate A	z-score, replicate B	z-score, replicate C	Outcome
GPN1 (GPN-loop GTPase 1)	1	3.63	3.3	3.46	4.13	active
